# Results: publication PMC10216065
# Tested on: N[C@@H](CS)C(=O)O
# Assay: purified protein
# Details: pH 8.0; 37.0 °C
substance,measurement,value
Mtb SufS (Rv1464) with Zn-SufU (Rv1465) (Mycobacterium tuberculosis H37Rv),Km,103 µM
same,Vmax,1.25 µmol/min/mg
same,kcat/Km,9100 M⁻¹ s⁻¹
